{"sequences": {"note": "Protein sequences, listed by entry. Tags and fused reporters are not part of them. Lines headed by an entry give the natural chain unless they say otherwise; changes in a name come on top.", "UniProt P51452": "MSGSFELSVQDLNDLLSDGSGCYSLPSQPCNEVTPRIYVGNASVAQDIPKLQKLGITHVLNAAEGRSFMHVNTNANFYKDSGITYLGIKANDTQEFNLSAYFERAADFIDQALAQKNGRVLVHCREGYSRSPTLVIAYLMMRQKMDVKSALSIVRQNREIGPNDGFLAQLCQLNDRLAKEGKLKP"}, "source": "ChEMBL document CHEMBL1156736", "about": "“Multidentate small-molecule inhibitors of vaccinia H1-related (VHR) phosphatase decrease proliferation of cervix cancer cells” (J Med Chem, 2009)", "molecular_target": "Dual specificity protein phosphatase 3 (Homo sapiens, UniProt P51452)", "assay": "Inhibition of recombinant vaccina H1-related phosphatase", "data": [{"smiles": "O=C1/C(=C/c2cn(-c3ccccc3)nc2-c2ccc(S(=O)(=O)N3CCCCC3)cc2)SC(=S)N1CCS(=O)(=O)O", "values": [{"measurement": "IC50", "value": 270, "unit": "nM"}]}]}
